Consider two substances from article PMC10633902, “Investigating the antimicrobial activity, cytotoxicity, and action mechanism of acylated and amidated derivatives of AurH1 antifungal peptide” (BMC Microbiology, 2023).

No end group written: not given here.

The data set concerns C. albicans. Description: Ergosterol binding assay (MIC in presence and absence of ergosterol). The class given is cell-based, Candida albicans. The conditions noted are these: concluded from unchanged MIC against C. albicans. Here is the method:
An ergosterol binding assay was performed to measure the binding potency of peptides to fungal membrane sterols. For this purpose, the ergosterol was dissolved in DMSO and Tween-20, it was heated to increase the solubility of the formed emulsion and diluted in an SDB medium at a concentration of […] and incubated at 37 °C for 1 h. After that, MIC of the AurH1, Ac-AurH1, and AurH1-NH2 peptides was measured by the micro-dilution method in the presence and absence of ergosterol in different concentrations ([…]) against C. albicans.

As to H-WFKIIKK-NH2 [AurH1-NH2, WFKIIKK-NH2], the “binding to Ergosterol (in words)” value is “do not bind to Ergosterol”.

With WFKIIKK [AurH1, WFKIIKK], the “binding to Ergosterol (in words)” value is recorded as “do not bind to Ergosterol”.
